The list shows a part of the results, in another mix than the full data. Active and inactive are the calls of the source.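 Rule for the calls: active = growth inhibition above about 50% at one test dose (limit read from the data); inactive = the rest.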

The nature of this assay: antibacterial activity against E. coli BW25113 – strain BW25113, expanded library, OD600, primary screen (AID 710).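 Note: growth measured after 20 h incubation at 37 °C.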 Particulars: OD600 absorbance, at 100 µM, active compounds read high.
For the compound `O=C(NCC1(N2CCOCC2)CCCCC1)c1cc(=O)[nH]c2ccccc12`, the growth inhibition is inactive: -6%.

As to `N#CC1(Nc2ccccc2)CCN(CCc2ccccc2)CC1`, the growth inhibition is inactive: -1%.

For `O=C(NCC1(N2CCOCC2)CCCCC1)c1cc2ccccc2o1`, the growth inhibition is inactive: 0%.

On to `O=C(OC1CN2CCC1CC2)C1c2ccccc2Oc2ccccc21` (centres undefined), for which the growth inhibition was inactive: 8%.

As to `COc1ccc(NC2CCN(CCc3ccccc3)CC2)c(OC)c1`, the growth inhibition was inactive: -2%.

Take `CCC(CO)(C(=O)OC1CN2CCC1CC2)c1ccccc1` (centres undefined): the growth inhibition was inactive: 0%.

As for `CCOc1ncccc1C(=O)NCC1(N2CCOCC2)CCCCC1`, the growth inhibition was inactive: -3%.

For the compound `N/C(=N\O)c1c(N)no[n+]1[O-]`, the growth inhibition was inactive: -6%.

Regarding `c1ccc(CN2CCC(Nc3ccccc3)CC2)cc1`, the growth inhibition is inactive: 5%.

Source of the values: PubChem BioAssay AID710 (SRMLSC, 2007).
